System: brine shrimp nauplii
Experiment: Brine shrimp lethality assay (BSLA)
Conditions: at highest 200 µg/mL concentration, 24 h

Substance: Quercitin-3-O rhamnoside [Quercitin-3-O-rhamnoside]
- mortality rate / cytotoxic effect in brine shrimp lethality assay: 60%

From publication PMC10866962, “Molecular docking of bioactive compounds extracted and purified from selected medicinal plant species against covid-19 proteins and in vitro evaluation” (Scientific Reports, 2024)
